Drawing on ChEMBL document CHEMBL3872213, “Synthesis and biological activity of furoxan derivatives against Mycobacterium tuberculosis” (Eur J Med Chem, 2016), this text covers MIC90 for 1 compound.

Converted amounts (≈) assume the structure as drawn.

The subject of the assay is Mycobacterium tuberculosis. The conditions noted are these: H37Rv ATCC 27294.

One may read the MIC90 as an inhibitory concentration at the 90% level, which refers to growth in some studies and to a panel of isolates in others. Lower therefore signals greater potency. As for `O=[N+]([O-])c1no[n+]([O-])c1-c1ccccc1`, the MIC90 worked out at 14 µM (≈ 2.9 µg/mL).
